The source of these data is PMC12656920.

Protein sequences, listed by entry. Tags and fused reporters are not part of them. Residues count along the entry.
UniProt P03300, 1566-1748: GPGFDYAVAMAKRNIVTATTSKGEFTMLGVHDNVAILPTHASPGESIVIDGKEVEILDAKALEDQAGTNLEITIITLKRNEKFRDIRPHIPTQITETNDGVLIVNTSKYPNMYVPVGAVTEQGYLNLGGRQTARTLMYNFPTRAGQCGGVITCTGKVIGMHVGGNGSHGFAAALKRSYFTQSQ

For at least one entry, the source does not settle the construct or the ends of the probe. At least one verdict rests on a figure or table, not on a statement of the authors.

The series has as its target PV-3C main protease (Poliovirus) (UniProt P03300). Description: NMR (CSP). As to conditions: recombinant protein; protein details: SUMO tag cleaved by ULP-1, 15N-labeled for NMR.
On to AAAAAAAAAAAAAAA [RNA-6], for which the binding result was “binds”.
On to ACCCCAGAGGCCCAC [RNA-4], for which the binding result is reported as “binds”.
As to AGUUCAAGAGC [RNA-15], the binding result was “binds”.
In the case of CAGAGGAACACGUGGCGGCG [RNA-13] it was “binds”; in that of CCAUCAAGAAUCCUA [RNA-5], “binds”.
On to CGCAGCAAACACAAG [RNA-7], for which the binding result was “binds”.
For CGUUGGCUUGACUCA [RNA-9], the binding result was “binds”.
Regarding CUACCUCAGUCGAAU [RNA-8], the binding result was “binds”.
Consider CUCCGGUAUUGCGGUACCCUUG [RNA-11], for which the binding result was “binds”.
In the case of GAUUGGGUCAUACUGUUGUAG [RNA-12] it was “binds”; in that of GGGGUUGUACCCACCCC [RNA-10], “binds”.
Then UUUUCUUUAAUUCGGAGAAAA [RNA-14], with “binds”.
Then UUUUUUUUUUUUUUU [RNA-3], with “binds”.
